Measurements as given in patent US12036229B2, “Use of phosphorylated heptose compounds” (NATIONAL RESEARCH COUNCIL OF CANADA, priority 2017, dated 2024).

Legend:
[1] = test system: latent recombinant HIV encoding dsRed fluorescent protein in Jurkat CD4+ T cell line; test: Stimulation of HIV proviral expression in Jurkat CD4+ T cells (dsRed); conditions: 150 or 300 μM, 24 hours; FIG. 10
[2] = test system: IgG titers to TbpB; test: Adjuvant test: immunization with TbpB, IgG titers to TbpB by ELISA; conditions: 200 μg with 25 μg TbpB intramuscularly, D0, D21, D28; serum D14, D28, D35; FIG. 15a
[3] = test system: N. meningitidis strain expressing the homologous TbpB; test: N. meningitidis challenge of immunized mice (sepsis model); conditions: adjuvant with 25 μg TbpB

D-glycero-D-manno-heptopyranose 1β-phosphate
HIV proviral expression (dsRed fluorescence, flow cytometry) [1]: can drive HIV out of latency in vitro
IgG titers to TbpB [2]: titers that were significantly higher than administration of TbpB alone and greater than observed with alum as the adjuvant
clinical scores ([3]; challenge D36, 12 h post challenge, FIG. 15c): lower
bacterial burden (CFU in blood) ([3]; challenge D36 with 5×10^7 N. meningitidis, blood at 1 h, FIG. 15b): reduced
